Measured values from several laboratories, pooled; numbers as filed in NIAID ChemDB.

All rows: growth or infection tests; organism: Candida albicans; measure: zone

Zones are inhibition diameters on agar. Rows are shuffled and stem from different studies. Blank or dashed fields: not listed here.

SMILES	strain or isolate	dose	method	value
O=[N+]([O-])c1ccc(/C=C/C(=NCCCn2ccnc2)c2ccccc2O)cc1		100 µg/mL	agar diffusion	20 mm
COc1ccc(C2c3ccc4ccccc4c3Oc3nc(-c4cc5ccccc5oc4=O)[nH]c(=O)c32)cc1		100 µg/mL	agar diffusion / agar	12 mm
Cc1ccc(C(C)C)c(O)c1	CN	100 µg/mL	agar diffusion	6 mm
CS(=O)(=O)c1nc(N)c(C#N)c(-c2ccccc2O)n1	MTCC 227	25 µg/mL	agar diffusion	16 mm
O=C1N/C(=N/N=C/c2c(Cl)cccc2Cl)S/C1=C/c1ccc(Cl)cc1Cl	ATCC 10231	200 µg	agar diffusion	16 mm
CCC(C)CCCCCCCCCCC(=O)N[C@H]1C[C@@H](O)[C@@H](N=[N+]=[N-])NC(=O)C2[C@@H](O)[C@@H](C)CN2C(=O)C(CO)NC(=O)C([C@H](O)C(N=[N+]=[N-])c2ccc(O)cc2)NC(=O)NC(=O)[C@@H]2C[C@@H](O)CN2C(=O)[C@H]([C@@H](C)O)NC1=O	IV	1 mg/mL	agar	15 mm
O=C1CS/C(=N/N=C/c2c(Cl)cccc2Cl)N1	ATCC 10231	200 µg	agar diffusion	6 mm
CC1=C2C(=O)CC(C)(C)C=C2N=C2SC(S(N)(=O)=O)=NN21		5000 µg/mL	agar diffusion	4 mm
Cc1ccc2occ(/C=C3/S/C(=N\N=C\c4c(Cl)cccc4Cl)NC3=O)c(=O)c2c1	ATCC 10231	200 µg	agar diffusion	0 mm
O=c1[nH]c(-c2cc3ccccc3oc2=O)nc2c1C(c1ccccc1)c1ccc3ccccc3c1O2		150 µg/mL	agar diffusion / agar	18 mm
C[C@H]1[C@H](O)[C@@H](C)/C=C/C=C/C=C/C=C/C=C/C=C/C=C/[C@H](O[C@@H]2O[C@H](C)[C@@H](O)[C@H](N)[C@@H]2O)C[C@@H]2O[C@](O)(C[C@@H](O)C[C@@H](O)CC[C@H](O)[C@@H](O)C[C@@H](O)CC(=O)O[C@H]1C)C[C@H](O)[C@H]2C(=O)O	MTCC 277	16 µg/mL	agar diffusion / agar	24 mm
Cc1ccc(NC2=C(C#N)C(c3ccc(Br)cc3)N=C3SC(S(N)(=O)=O)=NN32)cc1		5000 µg/mL	agar diffusion	4 mm
CSC1=NC(c2cccc([N+](=O)[O-])c2)C(C#N)=C(N)N1	MTCC 227	50 µg/mL	agar diffusion	17 mm
O=C(CNc1ccc(Cl)cc1)COc1ccc(-c2nc(-c3ccccc3)c(-c3ccccc3)s2)cc1	ATCC 10231	100 µg/mL	agar diffusion / agar	23 mm
Oc1ccccc1C(/C=C/c1ccccc1)=NCCCn1ccnc1		100 µg/mL	agar diffusion	17 mm
CCC(C)CCCCCCCCCCC(=O)N[C@H]1C[C@@H](O)[C@@H](Sc2ccccc2)NC(=O)C2[C@@H](O)[C@@H](C)CN2C(=O)C(CO)NC(=O)C([C@H](O)C(O)c2ccc(O)cc2)NC(=O)NC(=O)[C@@H]2C[C@@H](O)CN2C(=O)[C@H]([C@@H](C)O)NC1=O	IV	5 mg/mL	agar	18 mm
CS(=O)(=O)c1nc(N)c(C#N)c(-c2ccccc2[N+](=O)[O-])n1	MTCC 227	100 µg/mL	agar diffusion	20 mm
CCOC(=O)Cn1c(C(F)(F)F)nc2cc(C(=O)c3ccccc3)ccc21	MTCC 227	500 µg/mL		500 mm
CSC1=NC(c2ccccc2)C(C#N)=C(N)N1	MTCC 227	50 µg/mL	agar diffusion	18 mm
COC(=O)c1cc(=O)nc2sc3cc(C)ccc3n12		5000 µg/mL	agar diffusion	6 mm
COc1c(N2CC3CCCNC3C2)c(F)cc2c(=O)c(C(=O)[O-])cn(C3CC3)c12.COc1c(N2CC3CCCNC3C2)c(F)cc2c(=O)c(C(=O)[O-])cn(C3CC3)c12.[Cl][Cu+].[Cl][Cu+].c1c[nH]cn1.c1c[nH]cn1		100 µM	agar diffusion	10 mm
CS(=O)(=O)c1nc(N)c(C#N)c(/C=C\c2ccccc2)n1	MTCC 227	50 µg/mL	agar diffusion	18 mm
CCn1c(C(F)(F)F)nc2ccc([N+](=O)[O-])cc21	MTCC 227	500 µg/mL		900 mm
Oc1ccccc1C(/C=C/c1ccccc1)=NCCCn1ccnc1.[Cl][Ni]		100 µg/mL	agar diffusion	19 mm
C[C@H]1[C@H](O)[C@@H](C)/C=C/C=C/C=C/C=C/C=C/C=C/C=C/[C@H](O[C@@H]2O[C@H](C)[C@@H](O)[C@H](N)[C@@H]2O)C[C@@H]2O[C@](O)(C[C@@H](O)C[C@@H](O)CC[C@H](O)[C@@H](O)C[C@@H](O)CC(=O)O[C@H]1C)C[C@H](O)[C@H]2C(=O)O		100 µM	agar diffusion	19 mm
CCC(C)CCCCCCCCCCC(=O)N[C@H]1C[C@@H](O)[C@@H](S(=O)(=O)CC(=O)OC)NC(=O)C2[C@@H](O)[C@@H](C)CN2C(=O)C(CO)NC(=O)C([C@H](O)C(O)c2ccc(O)cc2)NC(=O)NC(=O)[C@@H]2C[C@@H](O)CN2C(=O)[C@H]([C@@H](C)O)NC1=O	IV	1 mg/mL	agar	21 mm
Nc1cc(=Nc2ccc(Br)cc2)n2nc(S(N)(=O)=O)sc2n1		5000 µg/mL	agar diffusion	4 mm
CCC(C)CCCCCCCCCCC(=O)N[C@H]1C[C@@H](O)[C@@H](O)NC(=O)C2[C@@H](O)[C@@H](C)CN2C(=O)C(CO)NC(=O)C([C@H](O)C(O)c2ccc(O)cc2)NC(=O)NC(=O)[C@@H]2C[C@@H](O)CN2C(=O)[C@H]([C@@H](C)O)NC1=O	IV	0.01 mg/mL	agar	24 mm
O=[N+]([O-])c1ccc2nc(C(F)(F)F)n(CCCCCl)c2c1	MTCC 227	500 µg/mL		600 mm
Cc1ccc(Oc2ccc(-c3nc4ccccc4c4cc5ccccc5n34)cc2)cc1		1000 µg/mL	agar diffusion	9 mm
CCC(C)CCCCCCCCCCC(=O)N[C@H]1C[C@@H](O)[C@@H](OC)NC(=O)C2[C@@H](O)[C@@H](C)CN2C(=O)C(CO)NC(=O)C([C@H](O)C(O)c2ccc(O)cc2)NC(=O)NC(=O)[C@@H]2C[C@@H](O)CN2C(=O)[C@H]([C@@H](C)O)NC1=O	IV	5 mg/mL	agar	27 mm
Cc1ccc2c(c1)sc1nc(=O)cc(C(=O)NN)n12		5000 µg/mL	agar diffusion	32 mm
O=C1N/C(=N/N=C/c2c(Cl)cccc2Cl)S/C1=C/c1coc2ccc(F)cc2c1=O	ATCC 10231	200 µg	agar diffusion	0 mm
CCn1c(C(F)(F)F)nc2cc([N+](=O)[O-])ccc21	MTCC 227	500 µg/mL		700 mm
CC1/C(=N\O)C(=O)NCCCOc2c(O)cc(c(Br)c2Br)C/C2=N\O[C@@H]3[C@H](Br)[C@@]4(C=C[C@@]3(O)C/C(=N\O)C(=O)NC[C@@H](O)[C@H](O)[C@H](O)CNC2=O)Oc2cc1cc(Br)c2O4		50 µg/disc	agar diffusion	11 mm
C[C@H]1[C@H](O)[C@@H](C)/C=C/C=C/C=C/C=C/C=C/C=C/C=C/[C@H](O[C@@H]2O[C@H](C)[C@@H](O)[C@H](N)[C@@H]2O)C[C@@H]2O[C@](O)(C[C@@H](O)C[C@@H](O)CC[C@H](O)[C@@H](O)C[C@@H](O)CC(=O)O[C@H]1C)C[C@H](O)[C@H]2C(=O)O		100 µg/mL	agar diffusion / agar	23.5 mm
c1ccc(-c2nc(-c3ccc(N4CCCC4)cc3)sc2-c2ccccc2)cc1	ATCC 10231	100 µg/mL	agar diffusion / agar	23 mm
CCC(C)CCCCCCCCCCC(=O)N[C@H]1C[C@@H](O)[C@@H]([n+]2cc[nH]c2)NC(=O)C2[C@@H](O)[C@@H](C)CN2C(=O)C(CO)NC(=O)C([C@H](O)C(O)c2ccc(O)cc2)NC(=O)NC(=O)[C@@H]2C[C@@H](O)CN2C(=O)[C@H]([C@@H](C)O)NC1=O	IV	2 mg/mL	agar	24 mm
O=c1[nH]c(-c2cc3ccccc3oc2=O)nc2c1C(c1cccc([N+](=O)[O-])c1)c1ccc3ccccc3c1O2		100 µg/mL	agar diffusion / agar	9 mm
CCOC(=O)Cn1c(C(F)(F)F)nc2ccc(C(=O)c3ccccc3)cc21	MTCC 227	500 µg/mL		400 mm
O=C(COc1ccc(-c2nc(-c3ccccc3)c(-c3ccccc3)s2)cc1)CN1CCOCC1	ATCC 10231	100 µg/mL	agar diffusion / agar	20 mm
CCOC(=O)Cn1c(C(F)(F)C(F)(F)F)nc2cc([N+](=O)[O-])ccc21	MTCC 227	500 µg/mL		800 mm
Cc1ccccc1N1CCN(CC(=O)N2c3ccccc3Sc3ccccc32)CC1		0.1 µg/mL	agar diffusion	0 mm
O=[N+]([O-])c1ccc2nc(C(F)(F)C(F)(F)F)n(CCCCCl)c2c1	MTCC 227	500 µg/mL		800 mm
O=C(CNc1ccc(Cl)cc1)Cc1ccc(-c2nc(-c3ccccc3)c(-c3ccccc3)s2)cc1	ATCC 10231	100 µg/mL	agar diffusion / agar	21 mm
COc1ccccc1/C=N/N=C1/NC(=O)/C(=C\c2coc3ccc(C)cc3c2=O)S1	ATCC 10231	200 µg	agar diffusion	0 mm
N#CC1=C(Nc2ccc(Br)cc2)N2N=C(S(N)(=O)=O)SC2=NC1c1ccccc1		5000 µg/mL	agar diffusion	3 mm
CC(C)C[C@@H]1NC(=O)[C@H](C(C)C)NC1=O	MTCC 277	32 µg/mL	agar diffusion / agar	18 mm
c1ccc(-c2nc(-c3ccc(Nc4nncs4)cc3)sc2-c2ccccc2)cc1	ATCC 10231	100 µg/mL	agar diffusion / agar	25 mm
Cc1ccc(/C=C/C(=NCCCn2ccnc2)c2ccccc2O)cc1		100 µg/mL	agar diffusion	17 mm
O=C(CN1CCN(c2ccccc2O)CC1)N1c2ccccc2Sc2ccccc21		0.1 µg/mL	agar diffusion	0 mm
O=C1N/C(=N/N=C/c2ccc(Cl)cc2Cl)S/C1=C/c1ccc(Br)cc1	ATCC 10231	200 µg	agar diffusion	0 mm
O=[N+]([O-])c1ccc2c(c1)nc(C(F)(F)C(F)(F)F)n2CCCCCl	MTCC 227	500 µg/mL		700 mm
C/C=C/C1=CC2=CC(=O)[C@](C)(OC(=O)c3c(C)cc(O)c(O)c3OC)C(=O)C2=CO1	ATCC 64548	0.1 µg/disc	agar diffusion	0 mm
O=C1N/C(=N/N=C/c2csc(-c3ccccc3)n2)S/C1=C/c1ccc(O)cc1	ATCC 10231	200 µg	agar diffusion	0 mm
O=[N+]([O-])c1ccc2c(c1)nc(C(F)(F)F)n2CCCCl	MTCC 227	500 µg/mL		300 mm